Drawing on PubChem BioAssay AID651610 (Broad Institute, 2012), this text covers inhibition for 89 molecules.

This is a selection; strong and weak results do not stand in their true shares. The source made the active and inactive calls.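 Rule for the calls: active = mean replicate inhibition score of at least 50 and every replicate individually at or above 50; inconclusive = only one of the two criteria met; inactive = mean below 50 and not all replicates reaching 50.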

A short description of this assay: blockers of JRFL envelope-mediated fusion – HeLa-JRFL effector, CEM21 target cells, luciferase, primary screen (AID 651610).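 Note: 0% = plate neutral controls and 100% = maraviroc near 300 nM.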 Conditions: HeLa-JRFL Env/CEM21 cell fusion, at 12.3 µM, active compounds read high.
Consider `CCCCn1nnnc1C(c1ccccc1)N1CCC(n2c(=O)[nH]c3ccccc32)CC1` (centres undefined), for which the inhibition is inactive: 1.88%.

Regarding `O=c1[nH]c2ccccc2n1C1CCN(C(c2cccs2)c2nnnn2C2CCCCC2)CC1` (centres undefined), the inhibition was inactive: -220%.

Regarding `O=c1[nH]c2ccccc2n1C1CCN(C(c2ccnc3ccccc23)c2nnnn2C2CCCC2)CC1` (centres undefined), the inhibition was inactive: -4.34%.

With `COc1ccc(C(=O)NCC2(N3CCOCC3)CCCCC2)cc1OC`, the inhibition is inactive: 2.64%.

Consider `COc1cccc(C(c2nnnn2C(C)(C)C)N2CCC(n3c(=O)[nH]c4ccccc43)CC2)c1OC` (centres undefined), for which the inhibition is inactive: 6.14%.

In the case of `CCOC(=O)N1CCC(Nc2ccc(C)cc2)CC1`, the inhibition is inactive: -7.09%.

Consider `O=c1[nH]c2ccccc2n1C1CCN(C(c2cccs2)c2nnnn2C2CCCC2)CC1` (centres undefined), for which the inhibition was inactive: -25.1%.

In the case of `O=C(OC1CN2CCC1CC2)C1c2ccccc2C=Cc2ccccc21` (centres undefined), the inhibition was inactive: -7.22%.

Regarding `CCCCn1nnnc1C(c1cccc(OC)c1OC)N1CCC(n2c(=O)[nH]c3ccccc32)CC1` (centres undefined), the inhibition is inactive: -26.9%.

For the molecule `N#Cc1ccc(C(=O)NCC2(N3CCCCC3)CCCCC2)cc1`, the inhibition is inactive: 12.4%.

In the case of `CC(C)(C)OC(=O)N1CCC(N(C(=O)c2ccccc2)c2ccc(Cl)cc2)CC1`, the inhibition was inactive: 0.733%.

Turning to `CN(C)C1(CNC(=O)c2cccc(C#N)c2)CCCCC1`, the inhibition was inactive: 2.61%.

For the molecule `Cc1cc(N(CCCl)CCCl)ccc1C=O`, the inhibition is inactive: 35.8%.

As to `O=c1[nH]c2ccccc2n1C1CCN(C(c2ccccc2)c2nnnn2C2CCCC2)CC1` (centres undefined), the inhibition is inactive: -33.6%.

As to `CCCN1CCC(Nc2cc(OC)cc(OC)c2)CC1`, the inhibition was inactive: -24.9%.

`c1ccc(CN2CCC(Nc3ccccc3)CC2)cc1`: the inhibition was inactive: -22%.

With `C/C(N)=N\P(=O)(Oc1ccccc1)Oc1ccccc1`, the inhibition was inactive: 2.82%.

In the case of `CC(C)(C)n1nnnc1C(c1cccc2ccccc12)N1CCC(n2c(=O)[nH]c3ccccc32)CC1` (centres undefined), the inhibition was inactive: 3.22%.

Consider `CCC(c1nnnn1C1CCCCC1)N1CCC(n2c(=O)[nH]c3ccccc32)CC1` (centres undefined), for which the inhibition was inactive: -4.19%.

In the case of `CC(=O)N(c1ccccc1)C1CCNCC1`, the inhibition is inactive: 0.4%.

On to `COc1cccc(C(c2nnnn2C2CCCCC2)N2CCC(n3c(=O)[nH]c4ccccc43)CC2)c1OC` (centres undefined), for which the inhibition was inactive: 38.9%.

On to `O=c1[nH]c2ccccc2n1C1CCN(C(c2ccnc3ccccc23)c2nnnn2C2CCCCC2)CC1` (centres undefined), for which the inhibition is inactive: -14.3%.

On to `COc1cc(OC)cc(C(=O)NCC2(N3CCCCC3)CCCCC2)c1`, for which the inhibition is inactive: 3.06%.

For the molecule `Cc1ccc(C(=O)NCC2(N3CCCCC3)CCCCC2)o1`, the inhibition was inactive: -1.43%.

As to `Cc1ccc(NC2(C#N)CCN(Cc3ccccc3)CC2)cc1`, the inhibition is inactive: -7.78%.

For `CC(C)(C)n1nnnc1C(c1ccnc2ccccc12)N1CCC(n2c(=O)[nH]c3ccccc32)CC1` (centres undefined), the inhibition was inactive: -31.7%.

In the case of `CCN1CCC(Nc2cccc(F)c2)CC1`, the inhibition is inactive: -7.41%.

As for `COc1ccc(C(c2nnnn2C2CCCCC2)N2CCC(n3c(=O)[nH]c4ccccc43)CC2)cc1` (centres undefined), the inhibition is inactive: -30.6%.

Turning to `Cn1c(=O)[nH]cc(N(CCCl)CCCl)c1=O`, the inhibition is inactive: 21.8%.

As to `CN(C)c1ccc(C(=O)NCC2(N3CCCCC3)CCCCC2)cc1`, the inhibition is inactive: 15.7%.

As for `CN1CCC(Nc2ccc(F)c(Cl)c2)CC1`, the inhibition is inactive: 11.7%.

Take `CCOc1ncccc1C(=O)NCC1(N2CCOCC2)CCCCC1`: the inhibition was inactive: -24.7%.

Turning to `NN(c1ccccc1)C1CCN(CCc2ccccc2)CC1`, the inhibition was inactive: 11.7%.

For the molecule `O=C(O)C1(Nc2ccccc2)CCN(Cc2ccccc2)CC1`, the inhibition was inactive: -12.6%.

On to `CC(C)(C)OC(=O)N1CCC(Nc2ccccc2)CC1`, for which the inhibition was inactive: 12%.

For the molecule `CCCOc1ccc(C(=O)NCC2(N(C)C)CCCCC2)cc1`, the inhibition is inactive: 6.42%.

For `O=c1[nH]c2ccccc2n1C1CCN(C(c2cc3ccccc3o2)c2nnnn2C2CCCC2)CC1` (centres undefined), the inhibition was inactive: -9.23%.

On to `COc1cccc(C(=O)N(c2cc(C)cc(C)c2)C2CCN(C(=O)OC(C)(C)C)CC2)c1`, for which the inhibition is inactive: 23.2%.

As for `COc1cccc(C(c2nnnn2C2CCCC2)N2CCC(n3c(=O)[nH]c4ccccc43)CC2)c1OC` (centres undefined), the inhibition is inactive: -53.9%.

With `COc1cc(OC)cc(C(=O)NCC2(N3CCOCC3)CCCCC2)c1`, the inhibition was inactive: 11%.

In the case of `CN1CCC(Nc2ccc(Cl)cc2)CC1`, the inhibition was inactive: -21.8%.

For `CC(C)(C)OC(=O)N1CCC(N(C(=O)c2ccccc2)c2ccc(F)cc2)CC1`, the inhibition was inactive: -2.61%.

`COc1ccc(C(=O)NCC2(N3CCCCC3)CCCCC2)c(OC)c1OC`: the inhibition was inactive: -14.9%.

Regarding `COc1ccc(C(=O)NCC2(N3CCCCC3)CCCCC2)cc1`, the inhibition was inactive: 3.08%.

For `O=C(NCC1(N2CCCCC2)CCCCC1)c1cccs1`, the inhibition was inactive: -7.65%.

Regarding `CCCCn1nnnc1C(CC)N1CCC(n2c(=O)[nH]c3ccccc32)CC1` (centres undefined), the inhibition is inactive: 25.2%.

Turning to `O=C(NCC1(N2CCCCC2)CCCCC1)c1ccc(=O)[nH]c1`, the inhibition was inactive: 0.229%.

For `Cc1cccc(NC2(C#N)CCN(Cc3ccccc3)CC2)c1`, the inhibition was inactive: -6.09%.

`CSc1ccccc1C(=O)NCC1(N2CCCCC2)CCCCC1`: the inhibition was inactive: 12.2%.

Take `Cc1cc(C)cc(N(C(=O)c2ccccc2)C2CCN(C(=O)OC(C)(C)C)CC2)c1`: the inhibition was inactive: -27.4%.

As to `O=c1[nH]c2ccccc2n1C1CCN(C(c2ccccc2OC(F)(F)F)c2nnnn2C2CCCCC2)CC1` (centres undefined), the inhibition is inactive: -68.4%.

For the molecule `O=C(NCC1(N2CCCCC2)CCCCC1)c1ccc(Cl)nc1`, the inhibition was inactive: -9.9%.

`O=c1[nH]c2ccccc2n1C1CCN(C(c2cc3ccccc3o2)c2nnnn2C2CCCCC2)CC1` (centres undefined): the inhibition is inactive: -40.3%.

For `N#CC1(Nc2ccccc2)CCN(Cc2ccccc2)CC1`, the inhibition is inactive: 14.6%.

As for `O=C(NCC1(N2CCCCC2)CCCCC1)c1ccc(Cl)s1`, the inhibition is inactive: 11.4%.

`CCCCn1nnnc1C(c1ccc(OC)cc1)N1CCC(n2c(=O)[nH]c3ccccc32)CC1` (centres undefined): the inhibition is inactive: -0.616%.

As for `CCOC(=O)N1CCC(Nc2ccc(OC)cc2)CC1`, the inhibition is inactive: 12%.

In the case of `CC(C)(C)n1nnnc1C(c1ccccc1)N1CCC(n2c(=O)[nH]c3ccccc32)CC1` (centres undefined), the inhibition was inactive: -2.03%.

Regarding `CCOc1ccc(C)cc1CN(CCCl)CCCl`, the inhibition is inactive: 1.87%.

As for `CCOC(=O)N1CCC(Nc2ccc(F)cc2)CC1`, the inhibition was inactive: -25.7%.

Turning to `COc1ccc(NC2CCN(CCc3ccccc3)CC2)c(OC)c1`, the inhibition was inactive: 14.4%.

Turning to `O=C(NCC1(N2CCCCC2)CCCCC1)c1ccc(F)cc1`, the inhibition is inactive: 16.7%.

Turning to `CCCCOc1ccc(C(=O)NCC2(N3CCOCC3)CCCCC2)cc1`, the inhibition was inactive: 4.29%.

Take `CCCCn1nnnc1C(c1cc2ccccc2o1)N1CCC(n2c(=O)[nH]c3ccccc32)CC1` (centres undefined): the inhibition is inactive: -25.9%.

Regarding `O=c1[nH]c2ccccc2n1C1CCN(C(c2ccccc2)c2nnnn2C2CCCCC2)CC1` (centres undefined), the inhibition is inactive: -50.6%.

For `COc1cc(C(=O)NCC2(N(C)C)CCCCC2)ccc1OC(F)F`, the inhibition is inactive: -4.22%.

As to `CCOC(=O)N1CCC(Nc2cccc(C)c2)CC1`, the inhibition was inactive: -48%.

As to `O=c1[nH]c2ccccc2n1C1CCN(C(c2cccc3ccccc23)c2nnnn2C2CCCC2)CC1` (centres undefined), the inhibition is inactive: -257%.

Consider `O=C(NCC1(N2CCCCC2)CCCCC1)c1ccc(OC(F)F)cc1`, for which the inhibition is inactive: 6.29%.

Consider `CC(C)(C)n1nnnc1C(c1ccccc1OC(F)(F)F)N1CCC(n2c(=O)[nH]c3ccccc32)CC1` (centres undefined), for which the inhibition was inactive: -112%.

For `O=c1[nH]c2ccccc2n1C1CCN(C(c2ccccc2OC(F)(F)F)c2nnnn2C2CCCC2)CC1` (centres undefined), the inhibition was inactive: -20%.

On to `CCN1CCC(Nc2ccc(Cl)cc2)CC1`, for which the inhibition was inactive: -17.4%.

As for `CSc1ccc(C(=O)NCC2(N3CCOCC3)CCCCC2)cc1`, the inhibition is inactive: 12.5%.

Take `O=C(NCC1(N2CCCCC2)CCCCC1)c1cccc([N+](=O)[O-])c1`: the inhibition was inactive: -0.742%.

For the molecule `O=C(NCC1(N2CCCCC2)CCCCC1)c1cccc(C(F)(F)F)c1`, the inhibition is inactive: 3.19%.

`COc1cc(C(=O)NCC2(N3CCCCC3)CCCCC2)ccc1OC(F)F`: the inhibition is inactive: 8.78%.

On to `CCCCn1nnnc1C(c1cccc2ccccc12)N1CCC(n2c(=O)[nH]c3ccccc32)CC1` (centres undefined), for which the inhibition is inactive: -169%.

For the molecule `CC(C)c1ccc(C(=O)NCC2(N3CCOCC3)CCCCC2)cc1`, the inhibition is inactive: -14%.

Consider `COc1ccc(NC2CCN(C(=O)OC(C)(C)C)CC2)cc1`, for which the inhibition was inactive: -2.68%.

`CN1CCN(CCOC(=O)C(O)(c2ccccc2)c2ccccc2)CC1`: the inhibition was inactive: 7.11%.

For the molecule `CC(C)c1ccc(NC2CCN(C(=O)OC(C)(C)C)CC2)cc1`, the inhibition is inactive: -0.686%.

On to `CN(C)c1cccc(C(=O)NCC2(N3CCCCC3)CCCCC2)c1`, for which the inhibition was inactive: 7.28%.

Turning to `COc1ccc(CN(CCCl)CCCl)cc1Cl`, the inhibition was inactive: 32.3%.

As to `O=C(NCC1(N2CCOCC2)CCCCC1)c1cc(F)c(F)cc1Cl`, the inhibition is inactive: 4.5%.

As for `COc1cc(OC)c(C(=O)NCC2(N(C)C)CCCCC2)cc1OC`, the inhibition is inactive: 4.29%.

`CCCCn1nnnc1C(c1ccnc2ccccc12)N1CCC(n2c(=O)[nH]c3ccccc32)CC1` (centres undefined): the inhibition is inactive: 0.163%.

Turning to `COc1ccc(C(c2nnnn2C2CCCC2)N2CCC(n3c(=O)[nH]c4ccccc43)CC2)cc1` (centres undefined), the inhibition is inactive: -20.2%.

Turning to `CCCOc1ccc(C(=O)NCC2(N(C)C)CCCCC2)cc1OC`, the inhibition is inactive: 4.12%.

In the case of `Cc1ccc(C(=O)NCC2(N(C)C)CCCCC2)o1`, the inhibition is inactive: -0.202%.
